Results of unrelated studies side by side (data: NIAID ChemDB).

Common to all: enzyme or target tests; organism: HIV-1; protein: Reverse transcriptase; measure: IC50

a–b is a range or a potency band. Rows are shuffled and stem from different studies. ICn: concentration for n% inhibition. An empty or dashed field is not shown.

smiles | strain or isolate | mutations | method | result
O=C(NCCc1ccccc1)Nc1ccccc1Cl |  |  | nucleotide incorporation | <10 µg/mL
N#Cc1cc(C#N)cc(Oc2ccc(CC(=O)Nc3ccccc3C(F)(F)F)cc2Cl)c1 |  |  | nucleotide incorporation / radiometric | 100 µM
CS(=O)(=O)Nc1ccc2[nH]c(C(N)=O)c(S(=O)(=O)c3ccccc3)c2c1 |  |  | nucleotide incorporation | 0.003–0.035 µM
CCOC(=O)N1c2ccccc2C=CC1C#N |  |  | nucleotide incorporation | 22 µM
Cc1cc(C)c(-n2nnnc2SCC(=O)Nc2ccc3c(c2)OCO3)c(C)c1 |  |  | fluorescence | <0.05 µM
Cc1cn([C@H]2CC[C@@H](COP(=O)(O)OP(=O)(O)OP(=O)(O)O)O2)c(=O)[nH]c1=O |  |  | nucleotide incorporation / radiometric | 0.22 µg/mL
CCN1c2ncccc2NC(=O)c2cc(CCOc3ccc(-c4cc(OC)c(O)c(C(=O)O)c4)cc3C)cnc21 | IIIB |  | nucleotide incorporation / radiometric | <0.05 µM
Cc1cc(C)c(-n2nnnc2SCC(=O)c2ccccc2[N+](=O)[O-])c(C)c1 |  |  | fluorescence | ≥0.1 µM
Cc1ccc(/C=C/c2cc3ccc(Cl)c(C)c3nc2Cl)s1 |  |  | RT activity | 0.18 µg/mL
CCOC(=O)/C=C/C(=O)NC[C@@H]1CC[C@H](n2cc(-c3cccs3)c(=O)[nH]c2=O)O1 |  |  | nucleotide incorporation / radiometric | >200 µg/mL
N#Cc1ccc(Nc2nc(N)n(S(=O)(=O)c3ccc4ccccc4c3)n2)cc1Cl | A17 | Y181C/K103N | luciferase / RT activity | 570 µM
CCN1c2ncc(CCOc3ccc(-c4cc(C)cnc4N)cc3C)cc2C(=O)N(C)c2cccnc21 | IIIB | RT-K103N Y181C | nucleotide incorporation / radiometric | <0.05 µM
O=C(CCc1occc1-c1cccc2ccccc12)Nc1ccccc1[N+](=O)[O-] |  |  | fluorescence | ≥0.1 µM
O=C(NCc1ccccn1)c1[nH]c2ccc(Cl)cc2c1Sc1ccccc1 |  |  | nucleotide incorporation | 0.003–0.035 µM
C=CCO/N=C/c1cc(NC(=S)c2ccoc2C)ccc1Cl |  | RT-L100I | nucleotide incorporation / radiometric | >50 µM
CC(C)(C)c1ccc(-n2nnnc2SCC(=O)Nc2ccc(S(=O)(=O)CC(=O)O)cc2Cl)c(Cl)c1 |  | RT-K103N Y181C | fluorescence | 0.05–0.1 µM
CCc1cc(CCc2nc3ccccc3o2)c(=O)[nH]c1C |  | RT-K103N Y181C Y188C | nucleotide incorporation | >117 µM
CCOc1ccccc1N1CCN(C(=O)c2cc3ccccc3[nH]2)CC1 |  |  | nucleotide incorporation | <100 µM
Nc1ccn([C@H]2CC[C@@H](COP(=O)(O)OP(=O)(O)OP(=O)(O)O)O2)c(=O)n1 |  | RT-F77L | nucleotide incorporation / radiometric | 0.42 µM
COc1ccc(/C=C/CSc2nc([C@H](C)c3c(F)cccc3F)c(C)c(=O)[nH]2)cc1 |  | K103N | RT activity / nucleotide incorporation | 0.47 µM
N#Cc1ccc(NC(=O)Cc2ccc(Oc3cc(C#N)cc(C#N)c3)c(Cl)c2)cc1 |  |  | nucleotide incorporation / radiometric | 10 µM
CCOC(=O)COc1ccc2[nH]c(C(=O)N3CCN(c4ncccc4NC(C)C)CC3)cc2c1 |  |  | nucleotide incorporation | <100 µM
Fc1ccc2c(c1)CCN(c1nn3c(C4CC4)nnc3c3ccccc13)C2 | 98US_MSC5016 |  | RT activity / fluorescence | 2.89 µM
Cc1c(Cl)ccc2cc(/C=C/C(=O)c3ccc(Cl)cc3)c(Cl)nc12 |  |  | RT activity | 0.11 µg/mL
O=C(NCc1cccc(O)c1)c1[nH]c2ccc(Cl)cc2c1Sc1ccccc1 |  |  | nucleotide incorporation | 0.003–0.035 µM
O=C(O)C(=O)CC(=O)C1(Cc2ccc(Cl)cc2)CCCN(Cc2ccccc2)C1 |  |  |  | >300 µM
CCN(CC)c1ccc(-n2nnnc2SCC(=O)Nc2ccc(S(N)(=O)=O)cc2C)c(Cl)c1 |  | RT-K103N Y181C | fluorescence | ≥0.1 µM
CC(C)(C)Nc1cccnc1N1CCN(C(=O)c2cc3ccccc3[nH]2)CC1 |  |  | nucleotide incorporation | <100 µM
CCN1c2ncc(CCOc3cccc4c3ccc[n+]4[O-])cc2C(=O)N(C)c2ccc(Cl)nc21 | IIIB |  | nucleotide incorporation / radiometric | 0.01 µM
CCCCOC(=O)N1c2ccccc2C=CC1C#N |  |  | nucleotide incorporation | 8 µM
O=C(NCCc1cnc[nH]1)c1[nH]c2ccc(Cl)cc2c1S(=O)(=O)c1ccccc1 |  |  | nucleotide incorporation | 0.003–0.035 µM
Nc1nc2c(ncn2[C@H]2CC[C@@H](COP(=O)(O)OP(=O)(O)OP(=O)(O)O)O2)c(=O)[nH]1 |  | RT-A62V V75I F77L F116Y Q151M | nucleotide incorporation / radiometric | 0.11 µM
CCNc1cccnc1N1CCN(Cc2cc(C)c(OC)c(C)c2)CC1 |  |  | nucleotide incorporation | <100 µM
O=C(O)/C=C\C(=O)NC[C@@H]1CC[C@H](n2cc(-c3cccs3)c(=O)[nH]c2=O)O1 |  |  | nucleotide incorporation / radiometric | 130 µg/mL
COc1ccc(-n2nnnc2SCC(=O)Nc2ccccc2[N+](=O)[O-])cc1 |  |  | fluorescence | ≥0.1 µM
Cc1cc(S(N)(=O)=O)ccc1NC(=O)COc1ccccc1C(=O)c1cc(Cl)cc(C#N)c1 | NNRTI-resistant | RT-K103N | nucleotide incorporation / radiometric | 0.0046 µM
CCN1c2ncc(CCOc3ccc(-c4ccc[n+]([O-])c4C)cc3C)cc2C(=O)N(C)c2cccnc21 | IIIB |  | nucleotide incorporation / radiometric | <0.05 µM
Nc1nc(Nc2ccc(Cl)c(Cl)c2)nn1S(=O)(=O)c1ccc2ccccc2c1 | IIIB |  | luciferase / RT activity | 4.7 µM
CCCOCCCNC(=S)Nc1cc(OC)c(Cl)cc1OC |  |  |  | 1.1 µM
CC(C)(C)c1csc(NC(=O)NCCc2ccccc2)n1 |  |  | nucleotide incorporation | >10 µg/mL
O=[N+]([O-])c1ccc2c(c1)CN(c1nn3c(C(F)F)nnc3c3ccccc13)CC2 | IIIB |  | RT activity / fluorescence | 5.45 µM
O=C(CSc1nnnn1-c1c(Cl)cccc1Cl)Nc1ccccc1[N+](=O)[O-] |  | RT-K103N Y181C | fluorescence | ≥0.1 µM
CCNc1cccnc1N(C)CCCCCCN(C)C(=O)c1cc2ccccc2[nH]1 |  |  | nucleotide incorporation | <100 µM
COc1ccc2c(c1)C=CC(C#N)N2C(=O)OCC(C)C |  |  | nucleotide incorporation | 13.8 µM
Cc1nnc2c3ccccc3c(N3CCc4ncccc4C3)nn12 | KER2008 |  | RT activity / fluorescence | 1.08 µM
CCCc1cc(=O)oc2c3c(c4c(c12)OC(C)(C)C=C4)O[C@H](C)C[C@@H]3O |  | RT-L100I | nucleotide incorporation / radiometric | 9.7 µM
CC(C)COC(=O)N1c2ccccc2C=CC1C#N |  |  | nucleotide incorporation | 7.8 µM
N#Cc1cc(Cl)cc(Oc2ccc(CC(=O)Nc3ccc(S(N)(=O)=O)cc3)cc2Cl)c1 |  |  | nucleotide incorporation / radiometric | 10 µM
c1ccc2c(c1)c(N1CCc3[nH]ccc3C1)nn1c(C3CC3)nnc21 | 98US_MSC5016 |  | RT activity / fluorescence | 5.54 µM
CC(C)OC(=O)N1c2ccc([N+](=O)[O-])cc2C=CC1C#N |  | RT-P236L | nucleotide incorporation | 8.1 µM
O=C(NCCc1ccccc1)Nc1nc2c(Cl)cccc2s1 |  |  | nucleotide incorporation | >10 µg/mL
Cc1occc1C(=S)Nc1ccc(Cl)c(/C=N/OC(C)(C)C)c1 |  | RT-L100I | nucleotide incorporation / radiometric | >50 µM
CSCO[C@]1(C)COC(C)(CC(=O)OC[C@@H]2C=C[C@H](n3cnc4c(N)ncnc43)O2)C1 |  |  |  | >100 µM
O=C1C[C@@H](c2ccc(O)cc2)Oc2cc(O)c(-c3c(O)cc4c(c3O)C(=O)C[C@@H](c3ccc(O)cc3)O4)c(O)c21 |  |  | RT activity | >368 µM
c1ccc2c(c1)CCN(c1nn3c(-c4ccsc4)nnc3c3ccccc13)C2 | 98US_MSC5016 |  | RT activity / fluorescence | 17.4 µM
Cc1c(Cl)ccc2cc(/C=C/c3sccc3Br)c(Cl)nc12 |  |  | RT activity | 0.22 µg/mL
N#Cc1cc(C#N)cc(Oc2ccc(CC(=O)Nc3ccc(S(N)(=O)=O)cc3)cc2F)c1 |  |  | nucleotide incorporation / radiometric | 100 µM
CC(C)(C)c1ccc(-n2nnnc2SCC(=O)Nc2ccccc2Cl)c(Br)c1 |  | RT-K103N Y181C | fluorescence | 0.05–0.1 µM
COC(=O)c1ccc(NC(=O)Cc2ccc(Oc3cc(C#N)cc(C#N)c3)c(Cl)c2)cc1Cl |  |  | nucleotide incorporation / radiometric | 10 µM
Cc1occc1C(=S)Nc1ccc(Cl)c(C(=O)OCC2CC2)c1 |  | RT-Y188H | nucleotide incorporation / radiometric | >50 µM
O=C(NCCc1ccccc1)Nc1ccc(Cl)cc1 |  |  | nucleotide incorporation | >10 µg/mL
CCN1c2ncc(CCOc3ccc(-c4ccc(CC(=O)O)cc4C)cc3C)cc2C(=O)N(C)c2cccnc21 | IIIB | RT-K103N Y181C | nucleotide incorporation / radiometric | 0.05–0.1 µM
CCNc1cccnc1N1CCN(C(=O)c2cc3cc(Cl)ccc3[nH]2)CC1 |  |  | nucleotide incorporation | <100 µM
CC(C)COC(=O)N1c2ccc([N+](=O)[O-])cc2C=CC1C#N |  | RT-P236L | nucleotide incorporation | 14.6 µM
CCNc1cccnc1N1CCN(C(=O)c2cccc3c2NCC3)CC1 |  |  | nucleotide incorporation | ~100 µM
COC(=O)c1ccc(NC(=O)Cc2ccc(Oc3cc(C#N)cc(C#N)c3)c(Cl)c2)cc1C |  |  | nucleotide incorporation / radiometric | 100 µM
Cc1c(Cl)ccc2cc(/C=C/C(=O)c3ccc(Br)cc3)c(Cl)nc12 |  |  | RT activity | 0.1 µg/mL
N#CC1C=Cc2ccccc2N1C(=O)OCCOc1ccccc1 |  |  | nucleotide incorporation | >50 µM
N#Cc1ccc(Cl)c(Oc2ccc(CC(=O)Nc3ccc(S(N)(=O)=O)cc3)cc2Cl)c1 |  |  | nucleotide incorporation / radiometric | 100 µM
COc1cc2c(cc1OC)CN(c1nn3c(C)nnc3c3ccccc13)CC2 | KER2008 |  | RT activity / fluorescence | 0.42 µM
O=C(O)/C=C/C(=O)NC[C@@H]1CC[C@H](n2cc(-c3cccs3)c(=O)[nH]c2=O)O1 |  |  | nucleotide incorporation / radiometric | >200 µg/mL
CC(C)Nc1cccnc1N1CCN(C(=O)c2cc3ccc(F)cc3[nH]2)CC1 |  |  | nucleotide incorporation | <100 µM
C=C(C)C1CC[C@@H]2CC[C@]3(C)C(CCC4[C@@]5(C)CC[C@H](O)C(C)(C)C5CC[C@]43C)C12 |  |  | RT activity | 67.2 µg/mL
COc1ccc2c(c1)C=CC(C#N)N2C(=O)OC(C)C |  | RT-P236L | nucleotide incorporation | 14.6 µM